System: 13 Candida spp. strains (strains A-M)
Experiment: MIC and checkerboard assay, azoles + antihistamines, panel
Assay type: cell-based
Conditions: total over 7 azoles and 13 strains; for cases of SYN: SYN = FICI≤0.5; for cases of pSYN: pSYN = 0.5<FICI≤0.75
Method: Determination of minimum inhibitory concentration (MIC) values. MIC values were recorded for all antifungals and antihistamines in order to determine the concentration range of compounds to be used in the checkerboard assays.
The MIC assays were done using the broth microdilution method as described in CLSI document M27-A3 with minor modifications. Yeast cultures were started by picking a colony from a PDA plate stored at 4° C. The colonies were grown in YEPD medium overnight at 35° C. with shaking at 200 rpm. In a 96-well plate compounds were diluted lengthwise along the plate in serial 2-fold dilutions in the RPMI 1640 medium. The yeast cultures were diluted in RPMI 1640 medium to an OD600 within the range of 0.12 and 0.15 (˜1×10^6 cells/mL). The fungal cells were further diluted by taking 25 μL of fungal cells and adding them to 10 mL of RPMI 1640 medium before adding 100 μL to plate (200 μL total volume). The plates were incubated at 35° C. for 48 h. Visual inspection of the wells for no growth was used to determine the MIC. All compounds were tested in duplicate (TABLES 6 and 7).
Checkerboard assays were done as previously described to determine the fractional inhibitory concentration index (FICI). 2-fold dilutions of the azole drug were made in RPMI 1640 medium lengthwise along the plate. For the antihistamine, 2-fold serial dilutions were made in sterile tubes with RPMI 1640 medium, then aliquoted into the plate. […] The maximal amount was used in the checkerboard assays if complete inhibition was not observed in the MIC assays. Cultures were started by picking a colony from a plate and growing in YEPD medium overnight at 35° C. with shaking at 200 rpm. Cultures were diluted in RPMI 1640 medium to an OD600 between 0.12 and 0.15 (˜1×10^6 cells/mL). Cells were then further diluted by taking 25 μL of cell suspension and adding to 10 mL of RPMI 1640 medium. After the drugs were added to the plate with 100 μL of medium, 100 μL of fungal cells were added. Plates were incubated at 35° C. for 48 h and visual inspection was used to determine wells with no growth. All experiments were carried out in duplicate. The FICI was calculated based on the formula below. The combinational effect of the 2 tested compounds were considered synergistic (SYN) if FICI≤0.5, additive (ADD) if 0.5<FICI≤4, and antagonistic if FICI>4 (TABLES 6-9).

SMILES	cases of SYN	cases of pSYN
CC(C)(C)c1ccc(C(=O)CCCN2CCC(OC(c3ccccc3)c3ccccc3)CC2)cc1 [EBA, ebastine]	14	9
CC(C)(C)c1ccc(C(O)CCCN2CCC(C(O)(c3ccccc3)c3ccccc3)CC2)cc1 (stereo not shown) [TERF, terfenadine]	41	22

From patent US20190015400A1, “Antifungal Compositions” (priority 2017, published 2019)
